Data as given in PubChem BioAssay AID504761 (Drosophila RNAi Screening Center, 2011).
The deposit covers about 22,000 reagents; below is an unselected part of those with a known target gene and a result. Of all reagents, 116 (0.52%) got an active call. 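Calls depend on retest data that are not deposited; infection was ranked per plate without normalising between plates; the unit of the infection score is not given.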 Raw values vary from plate to plate and are shown uncorrected. Reagents against one gene are numbered here. A plus sign joins genes that one reagent is predicted to hit. Not all columns of the deposit are shown. Not given: the amount of reagent, the time to read-out.

Aim: 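Fly genes whose silencing reduces dengue virus type 2 infection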 (primary screen)
Cells: D.Mel-2 cells from Drosophila
Knock-down reagent: long dsRNA against Drosophila genes
Challenge: infection with dengue virus type 2; dose and infection time not stated
Measured: 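Per well on two replicate plates, imaging gave the percent of cells positive for viral envelope protein, ranked by infection, and a nuclear count of cells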
Scale: infection score: higher = more virus-infected cells; cell count: higher = more cells in the well
Hit rule: 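Low infection ranks in the two replicates (chance level up to 0.065) followed by a retest with a 1.5-fold or larger significant decrease, p below 0.05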
Meaning of the calls: active = confirmed: knock-down lowers infection; inactive = not picked or not confirmed

| gene | reagent no. | infection score, replicate 1 | infection score, replicate 2 | cell count, replicate 1 | Call |
| --- | --- | --- | --- | --- | --- |
| sbr (small bristles) | 1 | 5.31 | 4.81 | 6397 | inactive |
| sbr (small bristles) | 2 | 5.07 | 6.4 | 848 | inactive |
| sbr (small bristles) | 3 | 12.9 | 10.6 | 3672 | inactive |
| Kank | 1 | 0.14 | 1.13 | 6404 | inactive |
| Kank | 2 | 4.91 | 3.91 | 6478 | inactive |
| Hr51 (Hormone receptor 51) | 1 | 4.04 | 5.88 | 6741 | inactive |
| Hr51 (Hormone receptor 51) | 2 | 1.96 | 2.2 | 6270 | inactive |
| Grx1 (Glutaredoxin 1) | 1 | 3.84 | 1.54 | 6639 | inactive |
| CG1663 | 1 | 2.99 | 2.19 | 6693 | inactive |
| CG1663 | 2 | 1.44 | 0.22 | 5538 | inactive |
| CG1663 | 3 | 8.21 | 9.9 | 5248 | inactive |
| CG9391 | 1 | 4.15 | 2.05 | 6552 | inactive |
| Acp53C14b (Accessory gland protein 53C14b) | 1 | 13.7 | 11.7 | 6659 | inactive |
| abo (abnormal oocyte) | 1 | 0.94 | 2.33 | 6726 | inactive |
| Nagk (N-acetylglucosamine kinase) | 1 | 15.9 | 13.4 | 5895 | inactive |
| CG32987 | 1 | 1.94 | 8.84 | 6191 | inactive |
| CG32987 | 2 | 5.73 | 1.95 | 1361 | inactive |
| CG17575 | 1 | 7.22 | 24.5 | 6956 | inactive |
| CG17575 | 2 | 1.74 | 4.44 | 6509 | inactive |
| AIMP3 (aaRS-interacting multifunctional protein 3) | 1 | 6.42 | 7.52 | 6469 | inactive |
| AIMP3 (aaRS-interacting multifunctional protein 3) | 2 | 4.81 | 3.2 | 6212 | inactive |
| CG14315 | 1 | 2.67 | 1.95 | 7032 | inactive |
| CG11426 | 1 | 6.23 | 7.75 | 6647 | inactive |
| CG11426 | 2 | 1.89 | 9.61 | 6628 | inactive |
| CG17242 | 1 | 2.52 | 1.93 | 6346 | inactive |
| CG2246 | 1 | 8.36 | 1.49 | 969 | inactive |
| GstD4 (Glutathione S transferase D4) | 1 | 11.4 | 11.9 | 6590 | inactive |
| GstD4 (Glutathione S transferase D4) | 2 | 4.65 | 13.8 | 6259 | inactive |
| CG11858 | 1 | 3.04 | 4.36 | 6216 | inactive |
| CG11858 | 2 | – | – | 388 | inactive |
| Elal (Elastin-like) | 1 | 16.1 | 6.95 | 5971 | inactive |
| CG32806 | 1 | 0.93 | 21.4 | 5941 | inactive |
| CG32806 | 2 | 8.82 | 10.3 | 3717 | inactive |
| Tbc1d22 (TBC1 domain family member 22) | 1 | 2.7 | 2.07 | 5931 | inactive |
| clumsy | 1 | – | 2.05 | 577 | inactive |
| BomS5 (Bomanin Short 5) | 1 | 2.31 | 20.9 | 5493 | inactive |
| CG7215 + Prx5 | 1 | 1.2 | 7.54 | 6003 | inactive |
| CG7215 + Prx5 | 2 | 7.61 | 32.2 | 1865 | inactive |
| CG1231 | 1 | 3.12 | 1.21 | 6094 | inactive |
| CG1231 | 2 | 14.4 | 14.6 | 4689 | inactive |
| CG14120 | 1 | 1.61 | 0.62 | 6105 | inactive |
| CG14120 | 2 | 3.88 | 10.6 | 6445 | inactive |
| gus (gustavus) | 1 | 15.1 | 46 | 6378 | inactive |
| gus (gustavus) | 2 | 14.5 | 11 | 5260 | inactive |
| gus (gustavus) | 3 | 6.43 | 16.7 | 6500 | inactive |
| Tim23 (Translocase of inner mitochondrial membrane 23) | 1 | 16.3 | 11.8 | 6115 | inactive |
| Tbp (TATA binding protein) | 1 | 2.77 | 1.44 | 6357 | inactive |
| CG7246 | 1 | 8.07 | 3.69 | 5194 | inactive |
| CG4622 | 1 | 29.5 | 16.6 | 5712 | inactive |
| betaNACtes6 (Nascent-associated complex beta-subunit-like, testis 6) | 1 | 1.22 | 2.19 | 6144 | inactive |
| betaNACtes6 (Nascent-associated complex beta-subunit-like, testis 6) | 2 | 6.37 | 1.18 | 5577 | inactive |
| sra (sarah) | 1 | 11 | 2.9 | 6988 | inactive |
| frc + Coq4 + Gorab | 1 | 1.3 | – | 462 | inactive |
| CG16922 (retired record) | 1 | 0.67 | 4.23 | 6249 | inactive |
| CG16922 (retired record) | 2 | 26.5 | 6.4 | 5518 | inactive |
| CG6324 | 1 | 4.79 | 4.16 | 6472 | inactive |
| CG34447 | 1 | 3.59 | 8.79 | 6160 | inactive |
| CG14218 | 1 | 1.86 | 0.4 | 6603 | inactive |
| CG14218 | 2 | 4.94 | 3.94 | 6214 | inactive |
| Ugt35D1 (UDP-glycosyltransferase family 35 member D1) | 1 | 7.15 | 9.03 | 6293 | inactive |
| CG31224 | 1 | 9.51 | 0.78 | 7014 | inactive |
| CG31224 | 2 | 1.33 | 2.34 | 6776 | inactive |
| CG4955 | 1 | 10.9 | 3.93 | 6083 | inactive |
| put (punt) | 1 | 16 | 25.5 | 4942 | inactive |
| swm (second mitotic wave missing) | 1 | 12.3 | 20.1 | 6172 | inactive |
| swm (second mitotic wave missing) | 2 | 19.5 | 8.98 | 5127 | inactive |
| CG12155 | 1 | 1.79 | 6.62 | 6152 | inactive |
| CG17105 | 1 | 0.48 | 2.26 | 6660 | inactive |
| CG17105 | 2 | 8.01 | 3.52 | 6404 | inactive |
| uri (unconventional prefoldin RPB5 interactor) | 1 | 11.3 | 42.9 | 6580 | inactive |
| uri (unconventional prefoldin RPB5 interactor) | 2 | 5.89 | 6.07 | 6194 | inactive |
| Bap55 (Brahma associated protein 55kD) | 1 | 21.5 | 16.8 | 2866 | inactive |
| CG9630 | 1 | 10.5 | 20.9 | 3277 | inactive |
| tko (technical knockout) | 1 | 2.24 | 7.45 | 5799 | inactive |
| tko (technical knockout) | 2 | 10.4 | 3.28 | 6343 | inactive |

8 consecutive reagents already listed, for reference:
| gene | reagent no. | infection score, replicate 1 | infection score, replicate 2 | cell count, replicate 1 | Call |
| --- | --- | --- | --- | --- | --- |
| CG14120 | 2 | 3.88 | 10.6 | 6445 | inactive |
| gus (gustavus) | 1 | 15.1 | 46 | 6378 | inactive |
| gus (gustavus) | 2 | 14.5 | 11 | 5260 | inactive |
| gus (gustavus) | 3 | 6.43 | 16.7 | 6500 | inactive |
| Tim23 (Translocase of inner mitochondrial membrane 23) | 1 | 16.3 | 11.8 | 6115 | inactive |
| Tbp (TATA binding protein) | 1 | 2.77 | 1.44 | 6357 | inactive |
| CG7246 | 1 | 8.07 | 3.69 | 5194 | inactive |
| CG4622 | 1 | 29.5 | 16.6 | 5712 | inactive |
